Construct, isoform or probe ends are uncertain for at least one entry.
Target: HIV-1 Tat protein (HIV-1) (UniProt P04608)
Test: binding assay
Conditions: CITED natural tat ligand; purified recombinant protein; protein details: American Bio-Technologies, Inc.

Q: Does CCAGAUCUGAGCCUGGGAGCUUCUGG [TAR RNA] bind?
A: binds

— US5637461
